Read-outs that look alike come from different tables or passages of the source.
System: Cynomolgus monkeys
Settings: Substance only (no virus)

Acetylated 5-(3',4',-Dimethoxybenzal) hydantoin [Example 14]
0/5: Presence of poliovirus in rectal, No. (4th Day) | Presence of poliovirus in rectal, No. (8th Day) | Presence of poliovirus in rectal, No. (11th Day) | Presence of poliovirus in rectal, No. (15th Day)
0%: Presence of poliovirus in rectal, % (4th Day) | Presence of poliovirus in rectal, % (8th Day) | Presence of poliovirus in rectal, % (11th Day) | Presence of poliovirus in rectal, % (15th Day)
